According to PubChem BioAssay AID504884 (Broad Institute, 2011):
The list shows a part of the results, in another mix than the full data. The source made the active and inactive calls. No stated cut-off is given here; in the data, active means activity above about 50% (passing the limit was not always enough); inconclusive means no clear call, values can overlap the other calls.

Each compound was assayed on DNA topoisomerase I (Yersinia pestis CO92) (assay: Yersinia pestis topoisomerase I inhibitors, primary screen, biochemical, cleavage product accumulation, plate reader, single point (AID 504884)). Settings: Y. pestis Topo-I cleavage product accumulation, at 10 µM, stronger effect = higher value.

Row | SMILES | activity
1 | Cc1cc(SC(NC(=O)c2ccccc2)C(Cl)(Cl)Cl)nc(C(C)C)n1 (stereo unspecified) | inactive: -0.356%
2 | ClCCSc1nnc(-c2cccnc2)o1 | inactive: 5.42%
3 | COC(=O)C1(C)COP(=O)(N2CCCCCC2)OC1 (stereo unspecified) | inactive: 6.02%
4 | CC(C)c1ccc(OP(=O)(Nc2ccccn2)Oc2ccccc2F)cc1 (stereo unspecified) | inactive: 20.3%
5 | CC(C)NC(=O)NP(=O)(Oc1ccccc1)Oc1ccccc1 | inactive: -2.32%
6 | CCN(CC)C(=S)SC(NC=O)C(Cl)(Cl)Cl (stereo unspecified) | inactive: -5.66%
7 | O=C(OC1CN2CCC1CC2)c1cccc2[nH]cnc12 (stereo unspecified) | inactive: 7.07%
8 | O=[N+]([O-])c1cc([N+](=O)[O-])c(-c2ccn[nH]2)s1 | inactive: 1.51%
9 | O=[As](O)(c1ccc(O)cc1)c1ccccc1O | inactive: 5.86%
10 | C[As](=O)(O)c1cccc(C(=O)O)c1 | inactive: 6.23%
11 | O=[N+]([O-])c1ccc(-c2cc([N+](=O)[O-])c(O)c([N+](=O)[O-])c2)cc1 | inactive: -6.03%
12 | COc1cc(C(=O)NCC2(N3CCOCC3)CCCCC2)ccc1OCC(C)C | inactive: 26.8%
13 | Cc1ccc(OP(=O)(Nc2ccc([N+](=O)[O-])cn2)Oc2ccc(C)cc2)cc1 | inactive: 7.48%
14 | Cc1ccc2nc3c(c(C)c2c1)CC(C(Cl)Cl)S3 (stereo unspecified) | inactive: 11.7%
15 | O=[N+]([O-])c1cc(Oc2ccc([N+](=O)[O-])cc2C(F)(F)F)cc([N+](=O)[O-])c1 | inactive: -10.2%
16 | COc1ccc(N/C(=N/P(=O)(N2CCOCC2)N2CCOCC2)N2CCOCC2)cc1 | inactive: -0.992%
17 | Cc1c2c(nc3ccccc13)SC(C(Cl)Cl)C2 (stereo unspecified) | inactive: 20.5%
18 | O=C(OC1CN2CCC1CC2)C12CC3CC(CC(C3)C1)C2 (stereo unspecified) | inactive: 3.58%
19 | Cc1cc(=O)[nH]c(N[N+](=O)[O-])n1 | inactive: 1.55%
20 | O=P1(N(CCCl)CCCl)Nc2ccccc2N1 | inactive: 8.08%
21 | O=P1(N(CCCl)CCCl)OCCCN1CCCl (stereo unspecified) | inactive: 3.86%
22 | COc1ccc2nc(NP(=O)(c3ccccc3)c3ccccc3)sc2c1 | inactive: -4.27%
23 | COc1cc(I)ccc1[As](=O)(O)O | inactive: 2.99%
24 | Cc1ccc(NCCc2c([N+](=O)[O-])cc([N+](=O)[O-])cc2[N+](=O)[O-])cc1 | inactive: -15.8%

Row | SMILES | activity
25 | Nc1cccc2c([As](=O)(O)O)cccc12 | inactive: -3.36%
26 | CCCOP(=S)(Nc1nc(N)cc(=O)[nH]1)OCCC | inactive: 2.59%
27 | COc1cc(C2NCCC3(OCCO3)C2(C)C)cc(OC)c1OC (stereo unspecified) | inactive: -3.83%
28 | CCOP(=O)(Nc1cccc2ccccc12)OCC | inactive: -1.44%
29 | O=C(OC1CN2CCC1CC2)c1ccc(Cl)cc1 (stereo unspecified) | inactive: -0.842%
30 | O=[As](O)(O)c1cccnc1 | inactive: 3.69%
31 | COc1cc(C(=O)NCC2(N3CCOCC3)CCCCC2)cc(Cl)c1OC(C)C | inactive: 0.106%
32 | CS(=O)(=O)c1ccc(Cl)c(NC(=O)COC(=O)C(O)(c2ccccc2)c2ccccc2)c1 | inactive: 1.48%
33 | Cc1cccc(OCC(=O)OC2CN3CCC2CC3)c1 (stereo unspecified) | inactive: -1.9%
34 | O=[As](O)(c1cccc(O)c1)c1cccc(O)c1 | inactive: 2.13%
35 | NC(=O)Nc1ccc([As](=O)(O)O)cc1 | inactive: 1.68%
36 | N#CCCN(C(=O)COC(=O)C(O)(c1ccccc1)c1ccccc1)c1ccc(F)cc1 | inactive: 2.47%
37 | CN(C(=O)Cc1ccccc1)[C@@H]1CC[C@]2(CCCO2)C[C@H]1N1CCCC1 | inactive: 1.94%
38 | CCOP1(=S)c2c(C)nn(CCC#N)c2N=C(c2ccc(F)cc2)N1C (stereo unspecified) | inactive: 6.41%
39 | O=[N+]([O-])c1ccc2c(c1)nnn2O | inactive: -4.28%
40 | CN(C)C(=O)c1cc([N+](=O)[O-])cc2c1-c1c(cc([N+](=O)[O-])cc1[N+](=O)[O-])C2=O | inactive: -7.83%
41 | CN(C(=O)Cc1ccc(Cl)c(Cl)c1)[C@H]1CC[C@@]2(CCCO2)C[C@@H]1N1CCCC1 | inactive: -6.46%
42 | CCOP1(=S)c2c(C)nn(CCC#N)c2N=C(c2ccccc2F)N1C (stereo unspecified) | inactive: 11.2%
43 | O=P(Nc1nccs1)(Oc1ccccc1)Oc1ccccc1 | inactive: 8.52%
44 | O=P(Nc1nccs1)(c1ccccc1)c1nc2ccccc2s1 (stereo unspecified) | inactive: -1.84%
45 | CS(=O)(=O)c1cc([N+](=O)[O-])c2no[n+]([O-])c2c1 | inactive: -4.81%
46 | O=C(O)COc1ccc([As](=O)(O)O)cc1[N+](=O)[O-] | inactive: -2.49%
47 | Nc1ccccc1[As](=O)(O)c1ccccc1 | inactive: 3.19%
48 | O=P1(Nc2ncccn2)COc2ccccc2OC1 | inactive: 2.37%

Row | SMILES | activity
49 | Nc1cccc([As](=O)(O)c2ccccc2)c1 | inactive: -11.8%
50 | Cc1ccc(OCC(=O)OC2CN3CCC2CC3)cc1 (stereo unspecified) | inactive: -4.83%
51 | O=[As](O)(c1cccs1)c1cccs1 | inactive: 9.57%
52 | NS(=O)(=O)c1cccc(NC(=O)COC(=O)C(O)(c2ccccc2)c2ccccc2)c1 | inactive: -12.3%
53 | O=P1(Nc2ccc(Br)cn2)COc2ccccc2OC1 | inactive: 4%
54 | Cc1nn(-c2ccccc2)c2c1P(=O)(N1CCOCC1)N(C)C(c1ccccc1)=N2 (stereo unspecified) | inactive: 4.26%
55 | Cc1ccc(C(=O)OC2CN3CCC2CC3)cc1 (stereo unspecified) | inactive: 10.1%
56 | CC1CCC(C(C)C)C(OP(=O)(Nc2ccccn2)c2ccccc2)C1 (stereo unspecified) | inactive: 10.5%
57 | CN(C)C1(CNC(=O)c2ccc(S(C)(=O)=O)cc2)CCCCC1 | inactive: 9%
58 | O=C(/C=C/c1ccccc1)OC1CN2CCC1CC2 (stereo unspecified) | inactive: -1.64%
59 | CCCC1OP(=O)(Nc2ccccc2)OCC1CC (stereo unspecified) | inactive: 5.32%
60 | COc1ccccc1CNC(=O)COC(=O)C(O)(c1ccccc1)c1ccccc1 | inactive: 6.38%
61 | CN(C(=O)Cc1ccc(Cl)c(Cl)c1)[C@@H]1CCCC[C@H]1N1CCCC1 | inactive: -3.6%
62 | CC(C)/C=N\N=C(\N)N[N+](=O)[O-] | inactive: -3.65%
63 | CC1(CBr)Cn2c(nc3ccccc3c2=O)S1 (stereo unspecified) | inactive: -4.09%
64 | CCC1=CC2Cc3nc4ccc(Cl)cc4c(N)c3C(C1)C2 (stereo unspecified) | inactive: 5.04%
65 | O=P1(Nc2ccccn2)COc2ccccc2OC1 | inactive: 6.1%
66 | CCOP(=O)(NC(=NC(C)c1ccccc1)NC(C)c1ccccc1)OCC (stereo unspecified) | inactive: 26.9%
67 | CCOP(=O)(Nc1ccc(C)cn1)OCC | inactive: 3.53%
68 | CN(CCCl)Cc1cc(Cl)c(NC2=NCCN2)c(Cl)c1 | inactive: 0.572%
69 | Clc1n[nH]nc1-c1nn[nH][15n]1 | inactive: 2.57%
70 | O=P1(N(CCCl)CCCl)NCCC(C(F)(F)F)O1 (stereo unspecified) | inactive: 2.31%
71 | CC(C)(C)C(=O)NC(Sc1ncccn1)C(Cl)(Cl)Cl (stereo unspecified) | inactive: 5.51%
